The subject of one data set is HepG2 cells. Nature of the data set: Cytotoxicity test, MTT method, HepG2 cells. The following applies: MLD50/IC50 ratio, HepG2 cells versus L. amazonensis. How it is done: Balb/c murine peritoneal macrophages were obtained as described above. Cytotoxicity was determined using the MTT method (3-(4,5-dimethylthiazol-2-yl)-2,5-diphenyl tetrazolium bromide) (Sigma). HepG2 cells were kept in RPMI medium supplemented with 10% FBS, and confluent monolayers were trypsinized, washed in RPMI, and transferred to 96-well microtiter plates (4 × 10^4 cells/well) for 16–18 h. Murine macrophages were used in the concentration 2 × 10^5 cells/well in 96-well microtiter plates. The compounds were serial diluted in different concentrations (10 → 0.16 mg/mL). In both tests, the medium was removed, and the compounds were incubated for 24 h (37°C, 5% CO2). Colorimetric reaction was developed following the incubation with MTT (37°C, 5% CO2, 4 h) and addition of acidified isopropanol. The reaction was read spectrophotometrically (Spectramax M5, Molecular Devices, San Francisco, CA) with a 570 nm filter and a background of 670 nm. Incubations were tested in triplicate in two independent experiments. The minimum dose that killed 50% of the cells (MLD50) was determined, and the values were plotted to generate dose-response curves using Microcal Origin Software (Northampton, MA, USA).
A general note: Tetrazolium assays rely on reduction of a dye to a coloured formazan, in cell work by metabolically active cells.

For another data set, the system named is murine macrophages. Nature of the data set: Cytotoxicity test, MTT method, murine peritoneal macrophages. The following applies: MLD50/IC50 ratio, murine macrophages versus L. amazonensis. Here is the method: Animals were kept in the Animal Facility of the Centro de Pesquisas René Rachou/FIOCRUZ in strict accordance to the Guide for the Care and Use of Experimental Animals. The procedures were approved by the Internal Ethics Committee in Animal Experimentation (CEUA) of Fundação Oswaldo Cruz (FIOCRUZ), Brazil (Protocol L-042/08). Mice were euthanized with CO2 in an induction chamber prior to macrophage removal. Balb/c mice were injected intraperitoneally with 2 mL of 3% sodium thioglycollate medium. After 72 h, peritoneal macrophages were removed by washing with cold RPMI 1640 medium and enriched by adherence to round glass coverslips (13 mm) placed in a 4-well culture plate. Cells (2 × 10^5 cells/well) were cultured (37°C, 5% CO2, 18 h) in RPMI supplemented with 10% heat-inactivated FBS (fetal bovine serum) prior to infection with parasites. Macrophages were exposed to stationary phase promastigotes (2 × 10^6/well) at a final ratio of 1 : 10. The plates were incubated at 37°C, 5% CO2, for 5 h in BOD to allow internalization of parasites. Then, the medium was removed for the remaining noninternalized parasites. Negative control included only infected macrophages and medium. Incubations were tested in duplicate in two independent experiments. The substances were serial diluted with RPMI 1640 medium supplemented with 10% FBS at five different concentrations (50 → 3.1 μg/mL). For compounds (3) and (6), the dilution was 10 → 0.016 μg/mL. […]
The cell lineage HepG2 A16 was derived from a human hepatocellular carcinoma cell line HepG2 (ATCC HB-8065) and obtained from America Type Culture Collection line (ATCC). […] Cytotoxicity was determined using the MTT method (3-(4,5-dimethylthiazol-2-yl)-2,5-diphenyl tetrazolium bromide) (Sigma). […] The reaction was read spectrophotometrically (Spectramax M5, Molecular Devices, San Francisco, CA) with a 570 nm filter and a background of 670 nm. […] The minimum dose that killed 50% of the cells (MLD50) was determined, and the values were plotted to generate dose-response curves using Microcal Origin Software (Northampton, MA, USA).

This is an account of results in publication PMC3677620, “Cytotoxicity and In Vitro Antileishmanial Activity of Antimony (V), Bismuth (V), and Tin (IV) Complexes of Lapachol” (Bioinorganic Chemistry and Applications, 2013).

Turning to `[Cl][Bi]([Cl])([c]1ccccc1)([c]1ccccc1)[c]1ccccc1` [(4), Triphenylbismuth dichloride], the “SI: selective index, HepG2” value with HepG2 cells is on record as 34.03. For the same compound, in the data set on murine macrophages, the “SI: selective index, macrophages” value is 4.67.

In the case of (Lp)(Ph3Sn) [(3)], the “SI: selective index, HepG2” value with HepG2 cells is 70.65. In the data set with murine macrophages, the “SI: selective index, macrophages” value stood at 9.41. On to (Lp)(Ph3Sb)OH [(2)], for which the “SI: selective index, HepG2” value with HepG2 cells is recorded as 17.81. On the same count and under the same terms, the result for `[Cl][Sb]([Cl])([c]1ccccc1)([c]1ccccc1)[c]1ccccc1` [(5), triphenylantimony dichloride] reads 13.56. Consider `[Cl][Sn]([c]1ccccc1)([c]1ccccc1)[c]1ccccc1` [(6), triphenyltin chloride], for which the “SI: selective index, HepG2” value in the data set on HepG2 cells is given as 120.35. Further, in the data set with murine macrophages, the “SI: selective index, macrophages” value is 7.30.
